In article PMC12319226 (Frontiers in Bioinformatics, 2025):

T1: fHbp m001927 (Neisseria meningitidis; fHbp …, chimera)
T1 chain: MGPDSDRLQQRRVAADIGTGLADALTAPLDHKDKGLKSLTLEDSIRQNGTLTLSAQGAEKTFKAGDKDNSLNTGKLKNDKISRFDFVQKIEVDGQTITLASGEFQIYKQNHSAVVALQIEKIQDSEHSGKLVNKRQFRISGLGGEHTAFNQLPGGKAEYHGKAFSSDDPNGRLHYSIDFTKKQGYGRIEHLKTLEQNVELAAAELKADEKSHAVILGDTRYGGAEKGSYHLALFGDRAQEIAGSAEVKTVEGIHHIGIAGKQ

T2: fHbp m001928 (Neisseria meningitidis; fHbp …, chimera)
T2 chain: T1 chain with G252S

T3: fHbp m001929 (Neisseria meningitidis; fHbp …, chimera)
T3 chain: T1 chain with G252A

T4: fHbp m001932 (Neisseria meningitidis; fHbp …, chimera)
T4 chain: T1 chain with E251N, G252A

T5: fHbp m001935 (Neisseria meningitidis; fHbp …, chimera)
T5 chain: T1 chain with E251V, G252A

T6: fHbp m002335 (Neisseria meningitidis; fHbp …, chimera)
T6 chain: T1 chain with G222N, G223S, E251N

T7: fHbp m002415 (Neisseria meningitidis, designed fHbp …, chimera)
T7 chain: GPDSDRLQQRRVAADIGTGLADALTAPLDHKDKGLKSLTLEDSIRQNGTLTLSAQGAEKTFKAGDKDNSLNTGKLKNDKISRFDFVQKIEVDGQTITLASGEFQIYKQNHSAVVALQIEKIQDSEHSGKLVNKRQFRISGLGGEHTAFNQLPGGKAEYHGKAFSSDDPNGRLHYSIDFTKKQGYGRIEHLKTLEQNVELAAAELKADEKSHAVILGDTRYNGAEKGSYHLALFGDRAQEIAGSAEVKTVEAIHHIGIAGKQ

T8: fHbp m002416 (Neisseria meningitidis, designed fHbp …, chimera)
T8 construct: also called fHbp 2,416; Round 2 best mutant
T8 chain: T7 chain with E250N, A251G

T9: fHbp m002421 (Neisseria meningitidis, designed fHbp …, point mutant)
T9 chain: T7 chain with E250V

T10: fHbp mutant 0014 (Neisseria meningitidis, fHbp v1.1 mutant, point mutant)
T10 chain: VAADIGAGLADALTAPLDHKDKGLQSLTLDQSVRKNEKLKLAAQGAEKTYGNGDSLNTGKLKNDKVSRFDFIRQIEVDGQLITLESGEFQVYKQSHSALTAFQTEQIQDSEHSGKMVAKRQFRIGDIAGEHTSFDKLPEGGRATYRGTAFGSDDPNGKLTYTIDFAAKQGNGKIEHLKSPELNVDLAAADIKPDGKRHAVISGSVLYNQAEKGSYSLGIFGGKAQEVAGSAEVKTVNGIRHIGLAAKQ

T11: fHbp mutant 0017 (Neisseria meningitidis, fHbp v1.1 mutant, point mutant)
T11 chain: T10 chain with K38T, K40T, A42S, I72V, Q74K, M116L, A118N

T12: fHbp mutant 0018 (Neisseria meningitidis, fHbp v1.1 mutant, point mutant)
T12 chain: T10 chain with K38T, K40T, A42S, I72V, Q74K, Q106K

T13: fHbp m000019 (Neisseria meningitidis, fHbp v1.1 …, point mutant)
T13 chain: T10 chain with K38T, K40T, A42S, I72V, Q74K, Q106K, M116L, A118N, P155A, N156G

T14: fHbp mutant 0015 (Neisseria meningitidis, fHbp v1.1 mutant, point mutant)
T14 chain: T10 chain with I72V, Q74K, Q106K, M116L, A118N

B1: chimeric antibody hJAR5 (antibody, V domains shown)
VH: QVQMQQPGAELVKPGASVKLSCKASGYTFISYWMHWVKQRPGRGLEWIGRIAPDTGIIYYNEKFKNKATLTVDTPSSTAYMQLNSLTSEDSAVYYCARYLKYDGSTYRFDYWGQGTTLTVSS
VL: DIVMTQAAPSVPVTPGESVSISCRSSKSLLHSNGNTYLFWFLQRPGQSPQLLIYRMSNLASGVPDRFSGSGSGTSFTLRISRVEAEDVGVYYCMQHLEYPYTFGGGTKLEIK
notes: also called hJAR5-2; humanized JAR5; source: Expi293, purified (MabSelect SuRe, SEC); copies: 2 + 2
B2: mAb JAR5 (mouse) (antibody, V domains shown)
VH: B1 VH
VL: B1 VL
notes: source: Expi293, purified (MabSelect SuRe, SEC); copies: 2 + 2

Experiments:
Assay in all cases: BLI
Settings in all cases: both partners purified
fHbp m001927 = target: T1, fHbp m001927
fHbp m001928 = target: T2, fHbp m001928
fHbp m001929 = target: T3, fHbp m001929
fHbp m001932 = target: T4, fHbp m001932
fHbp m001935 = target: T5, fHbp m001935
fHbp m002335 = target: T6, fHbp m002335
fHbp m002415 = target: T7, fHbp m002415
fHbp m002416 = target: T8, fHbp m002416
fHbp m002421 = target: T9, fHbp m002421
fHbp mutant 0014 = target: T10, fHbp mutant 0014
fHbp mutant 0017 = target: T11, fHbp mutant 0017
fHbp mutant 0018 = target: T12, fHbp mutant 0018
fHbp m000019 = target: T13, fHbp m000019
fHbp mutant 0015 = target: T14, fHbp mutant 0015

Binder | koff (fHbp m001927) [s⁻¹] | kon (fHbp m001928) [M⁻¹ s⁻¹] | kon (fHbp m001929) [M⁻¹ s⁻¹] | koff (fHbp m001932) [s⁻¹] | koff (fHbp m001935) [s⁻¹] | kon (fHbp m002335) [M⁻¹ s⁻¹] | koff (fHbp m002415) [s⁻¹] | koff (fHbp m002416) [s⁻¹] | kon (fHbp m002421) [M⁻¹ s⁻¹] | koff (fHbp mutant 0014) [s⁻¹] | kon (fHbp mutant 0017) [M⁻¹ s⁻¹] | kon (fHbp mutant 0018) [M⁻¹ s⁻¹] | kon (fHbp m000019) [M⁻¹ s⁻¹] | koff (fHbp mutant 0015) [s⁻¹] | kon (fHbp mutant 0015) [M⁻¹ s⁻¹]
B1 | 0.000372 | 402800 ± 1730 | 301000 ± 5290 | 0.000936 | 0.000223 | 357500 ± 1540 | 0.000261 | 0.000278 | 1.246e+06 ± 5320 |  |  |  |  |  | 
B2 |  |  |  |  |  |  |  |  |  | 0.000279 | 674200 ± 6520 | 689400 ± 5340 | 937000 ± 4100 | 0.000161 | 769000 ± 9300

Where a chain is given by its changes, count along the chain named.
